Reference: patent US12306178B2 (priority 2022, dated 2025)

Columns and labels:
[1] = system: AFB1-ScFV-AP bifunctional fusion protein; conditions: kit for AFB1, relative to AFB1
[2] = system: DON-ScFV-AP bifunctional fusion protein; conditions: kit for DON, relative to DON

| Compound | Cross-reaction rate (%) [1] [%] | Cross-reaction rate (%) [2] [%] |
| --- | --- | --- |
| CC1=C[C@H]2O[C@@H]3[C@H](O)[C@@H](O)[C@](C)([C@@]2(CO)[C@H](O)C1=O)[C@]31CO1 [NIV, nivalenol] | <1 | <1 |
| 3-acetyldeoxynivalenol | <1 |  |
| fumonisin B2 | <1 |  |
| 15-acetyldeoxynivalenol | <1 | 3.7 |
| deoxynivalenol-3-glucoside | <1 |  |
| CC1=C[C@H]2O[C@@H]3[C@H](O)C[C@](C)([C@@]2(CO)[C@H](O)C1=O)[C@]31CO1 [DON, Deoxynivalenol] | <1 |  |
| ochratoxin A | <1 | <1 |
| fumonisin B1 | <1 |  |
| C[C@H]1CCCC(=O)CCC/C=C/c2cc(O)cc(O)c2C(=O)O1 [ZEN, zearalenone] | <1 | <1 |
| fumonisin B3 | <1 |  |
